Columns and labels:
IgA = experiment: ELISA assay compatibility of preservatives: IgA detection; set-up: species or system human; conditions: in SDJ; FIGS. 46, 48
IgM = experiment: ELISA assay compatibility of preservatives: IgM detection; set-up: species or system human; conditions: in SDJ; FIGS. 47, 49

## O=C(O)CC(O)(CC(=O)O)C(=O)O [citric acid]
IgA
  effect on IgA detection by ELISA: responsible for the IgA and IgM ELISA assay inhibition
IgM
  effect on IgM detection by ELISA: responsible for the IgA and IgM ELISA assay inhibition

## C/C=C/C=C/C(=O)O [sorbic acid]
IgA
  effect on IgA detection by ELISA: responsible for the IgA and IgM ELISA assay inhibition
IgM
  effect on IgM detection by ELISA: responsible for the IgA and IgM ELISA assay inhibition

Source: patent US10588608B2, “Sampling systems and related materials and methods” (Progenity Inc., priority 2016, dated 2020)
